Laboratory results taken from patent US4818687A (priority 1985, dated 1989).

Tests used:
[1] = test system: anti-AFB1 IgM antibody immobilized upon Sepharose 4B; experiment: Release of 3H-AFB1 with increasing concentrations of DMSO (Table III); details: for suitability as releasing agent: concentration of at least 50%
IgM antibody for AFB1 = experiment: Competitive RIA with 3H-AFB1 tracer: specificity of the IgM antibody (FIGS. 1 and 2); details: for 50% inhibition value: competitive RIA, 3H-AFB1 tracer, FIG. 2, AFB1 and aflatoxin-DNA adducts
many animal species = details: cited from earlier work
[2] = test system: anti-AFB1 IgM antibody immobilized upon Sepharose 4B; experiment: Release of 3H-AFB1 tracer from anti-AFB1 IgM antibody affinity column by different eluants (Table I)
[3] = test system: anti-AFB1 IgM antibody immobilized upon Sepharose 4B; experiment: Re-use of the affinity column with a second 3H-AFB1 tracer aliquot (Table II)

Molecule: CC(=O)N(C)C
- suitability as releasing agent [1]: suitable for use in this methodology

Molecule: CN(C)C=O
- suitability as releasing agent [1]: suitable for use in this methodology

Molecule: COc1cc2c(c3oc(=O)c4c(c13)CCC4=O)C1C(O2)OC(N(C=O)c2c(N)nc(N)[nH]c2=O)C1O (stereo not drawn)
- 50% inhibition value (IgM antibody for AFB1): 24.0 pmol
- times more sensitive in detecting the AF-FAPyr adduct than the AF-N7-Gua adduct (IgM antibody for AFB1; ratio from 50% inhibition values): approximately four

Molecule: COc1cc2c(c3oc(=O)c4c(c13)CCC4=O)C1C(O2)OC(n2cnc3nc(N)[nH]c(=O)c32)C1O (stereo not drawn)
- 50% inhibition value (IgM antibody for AFB1): 89.0 pmol

Molecule: COc1cc2c(c3oc(=O)c4c(c13)CCC4=O)[C@@H]1C=CO[C@@H]1O2 [aflatoxin B1]
- toxicity in animals (many animal species): toxic, mutagenic and carcinogenic in many animal species
- 50% inhibition value (IgM antibody for AFB1): 3.0 pmol
- rate or quantity of AFB1 released from the affinity matrix ([1]; concentrations of DMSO greater than 50%): did not measurably increase the rate or quantity of AFB1 released

Molecule: ^3 H-aflatoxin B1
- AFB1 tracer released from the affinity matrix ([2]; 50% DMSO): 90%
- original tracer not adsorbed by the affinity matrix ([2]; effluent fraction No. 1): about 10%
- release of tracer AFB1 by the IgM antibodies of the matrix ([2]; effluent fractions 2-6): no substantial release
- % of Original ([3]; fraction 8, PBS): ~ 10%
- % of Original ([3]; fraction 9, 50% DMSO): ~ 60%
- AFB1 tracer released by the DMSO ([3]; fraction 9, second tracer aliquot): about 60%
- % of Original ([3]; fraction 10, 1st PBS wash): ~ 30%
- % of Original ([3]; fraction 11, 2nd PBS wash): ~ 0%
- tracer not retained by the affinity matrix ([3]; second tracer aliquot, approximately 24,486 cpm): approximately 10%
- release of 3H-AFB1 from the affinity matrix ([1]; prior to using a 50% solution of DMSO): no substantial release
